Experimental data: PubChem BioAssay AID588549 (Broad Institute, 2011)
Only a part is listed here, and it is no random draw. The source made the active and inactive calls. Cut-off read from the data, not from the text of the source: active = inhibition above about 8.5% (passing the limit was not always enough); inconclusive = no clear call, values can overlap the other calls.

Tested on: Mycobacterium tuberculosis FadD28 fatty-acid-AMP ligase
Assay: inhibitors of FadD28 bisubstrate probe binding, primary screen, biochemical, fluorescence polarization, single point (AID 588549)
Conditions: at 12.5 µM, stronger effect = higher value

Compound	inhibition
CC(C)(C)OC(=O)N1CCC(N(C(=O)c2ccccc2)c2ccc(Cl)cc2)CC1	inactive: -0.516%
N#Cc1ccc(C(=O)NCC2(N3CCCCC3)CCCCC2)cc1	inactive: -2.37%
CC(C)(C)n1nnnc1C(c1cccc2ccccc12)N1CCC(n2c(=O)[nH]c3ccccc32)CC1 (stereo not given)	inactive: -5.02%
c1ccc(CN2CCC(Nc3ccccc3)CC2)cc1	inactive: -0.188%
Cc1cc(N(CCCl)CCCl)ccc1C=O	inactive: -3.45%
O=c1[nH]c2ccccc2n1C1CCN(C(c2ccccc2)c2nnnn2C2CCCC2)CC1 (stereo not given)	inactive: -0.517%
CCCN1CCC(Nc2cc(OC)cc(OC)c2)CC1	inactive: -3.83%
CN(C)C1(CNC(=O)c2cccc(C#N)c2)CCCCC1	inactive: -1.9%
COc1ccc(C(=O)NCC2(N3CCOCC3)CCCCC2)cc1OC	inactive: -2.38%
O=c1[nH]c2ccccc2n1C1CCN(C(c2ccnc3ccccc23)c2nnnn2C2CCCC2)CC1 (stereo not given)	inactive: -6.39%
O=c1[nH]c2ccccc2n1C1CCN(C(c2cccs2)c2nnnn2C2CCCCC2)CC1 (stereo not given)	inactive: -2.07%
O=C(NCC1(N2CCOCC2)CCCCC1)c1cc(Br)ccc1Cl	inactive: -0.46%
CCCCn1nnnc1C(c1ccccc1)N1CCC(n2c(=O)[nH]c3ccccc32)CC1 (stereo not given)	inactive: -3.7%
COc1cc(C(=O)NCC2(N3CCOCC3)CCCCC2)cc(OC)c1C	inactive: -2.75%
CCCCn1nnnc1C(c1cccc(OC)c1OC)N1CCC(n2c(=O)[nH]c3ccccc32)CC1 (stereo not given)	inactive: -1.47%
O=C(OC1CN2CCC1CC2)C1c2ccccc2C=Cc2ccccc21 (stereo not given)	inactive: -1.08%
O=c1[nH]c2ccccc2n1C1CCN(C(c2cccs2)c2nnnn2C2CCCC2)CC1 (stereo not given)	inactive: -5.23%
N/C(=N\O)c1c(N)no[n+]1[O-]	inactive: -1.81%
COc1cccc(C(c2nnnn2C(C)(C)C)N2CCC(n3c(=O)[nH]c4ccccc43)CC2)c1OC (stereo not given)	inactive: -2.8%
CCOC(=O)N1CCC(Nc2ccc(C)cc2)CC1	inactive: 0.17%
